From PMC6315591 (Marine Drugs, 2018)

By UniProt entry, the sequences of proteins in these tests, tags left out. Residues count along the entry.
UniProt P43144, 26-479 limits assumed: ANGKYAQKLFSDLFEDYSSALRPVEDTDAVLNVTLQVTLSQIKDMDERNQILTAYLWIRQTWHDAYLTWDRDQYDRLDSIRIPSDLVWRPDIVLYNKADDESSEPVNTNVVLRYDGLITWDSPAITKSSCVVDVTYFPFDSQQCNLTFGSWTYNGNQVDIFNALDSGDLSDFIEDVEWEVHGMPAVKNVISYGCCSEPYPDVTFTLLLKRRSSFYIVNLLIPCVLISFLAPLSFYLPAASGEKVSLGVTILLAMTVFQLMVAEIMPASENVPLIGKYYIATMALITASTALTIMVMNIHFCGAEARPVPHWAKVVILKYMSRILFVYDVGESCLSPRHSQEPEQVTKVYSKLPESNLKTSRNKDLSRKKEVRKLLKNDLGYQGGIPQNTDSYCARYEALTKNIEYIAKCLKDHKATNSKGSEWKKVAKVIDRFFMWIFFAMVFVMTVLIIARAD
UniProt Q9JLB5, 25-447 limits assumed: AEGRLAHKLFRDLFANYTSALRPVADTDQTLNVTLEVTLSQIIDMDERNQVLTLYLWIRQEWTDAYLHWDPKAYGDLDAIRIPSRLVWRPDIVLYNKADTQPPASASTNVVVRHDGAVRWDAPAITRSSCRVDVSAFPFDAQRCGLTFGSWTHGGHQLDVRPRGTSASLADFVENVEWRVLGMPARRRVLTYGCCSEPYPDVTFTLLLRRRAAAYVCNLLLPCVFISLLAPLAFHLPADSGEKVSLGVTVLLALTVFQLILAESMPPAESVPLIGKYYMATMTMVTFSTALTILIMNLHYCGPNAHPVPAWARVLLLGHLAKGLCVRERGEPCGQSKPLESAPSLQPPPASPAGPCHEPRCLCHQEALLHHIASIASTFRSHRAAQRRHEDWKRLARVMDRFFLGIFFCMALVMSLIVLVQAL

Molecular target: rat α9α10 nAChR (Rattus norvegicus, UniProt P43144+Q9JLB5)

Which IC50 does the source give for `C[C@H](N)C(=O)N[C@H]1CSSC[C@@H]2NC(=O)[C@H](C)NC(=O)[C@@H]3CCCN3C(=O)[C@H](CC(N)=O)NC(=O)[C@H](CSSC[C@@H](C(N)=O)NC(=O)[C@H](CO)NC(=O)[C@H](Cc3ccc(O)cc3)NC(=O)[C@H](Cc3c[nH]cn3)NC(=O)[C@H](CCCNC(=N)N)NC(=O)CNC2=O)NC1=O` here?
Its IC50 is greater than 10 µM.
